Measured values published in patent US20090215029A1, “METHODS OF ISOLATING AND PURIFYING NUCLEIC ACID-BINDING BIOMOLECULES AND COMPOSITIONS INCLUDING SAME” (CytoCure, Inc., priority 2007, published 2009).

Test system: nucleic acids to a bound factor
Assay: Cross-linking / fixative activity: effectiveness in covalently linking nucleic acids to a bound factor
Assay type: biochemical
Settings: additional fixative agents

Substance: quinacrine mustard
- Activity as fixative agent: some activity
